Data as given in PubChem BioAssay AID720554 (ICCB-Longwood Screening Facility, Harvard Medical School, 2013).
This is a selection; strong and weak results do not stand in their true shares. Activity calls are given as the source filed them. Cut-off read from the data, not from the text of the source: active = inhibition mostly above about 83% (no sharp cut-off); inactive = mostly below about 52%.

Test system: acyl-homoserine lactone synthase BmaI1 (Burkholderia mallei ATCC 23344)
Experiment: BmaI1 acyl-homoserine lactone synthase inhibition – biochemical, fluorescence intensity, with counterscreen (AID 720554)
Conditions: BmaI1 enzyme assay, hits give high values, concentration not given here

Compound | inhibition
CP(=O)(N1CCOCC1)N1CCOCC1 | inactive: 11.5%
CCc1ccc(OP(C)(=O)Nc2cccnc2)cc1 (configuration not stated) | inactive: 9.5%
